PubChem BioAssay AID1224833, University of Georgia – 2016

Assay: 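Host factors restraining rotavirus as candidate antiviral genes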 (primary screen)
Cells: monkey MA104 kidney cells
Reagents: siRNA pool against human genes, 50 nM
Timing: 48 h knock-down before infection; read 24 h after infection
Conditions: infection with rotavirus strain RV3 two days after transfection; infectious dose for this stage not given
Measurement: 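Rotavirus antigen per well by fluorescent immunoassay, normalised to non-targeting control wells on each plate and given as a standard z-score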
Direction: z-score vs non-targeting control: higher = more rotavirus replication than with non-targeting control
Hit rule: In these data the active calls have z-score vs non-targeting control at about -1 or lower, or at about 1 or higher
Meaning of the calls: active = z-score beyond 1 either way; inactive = z-score within 1 of zero
In all, the deposit lists about 12,000 reagents; below is an unselected part. About 5,600 of them (46%) count as active. 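Active calls cover z-scores past 1 in both directions, so they include lowered as well as raised rotavirus replication.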

What is on record for DAP (death associated protein)?
z-score vs non-targeting control: -0.86; activity call: inactive

For SDK2 (sidekick cell adhesion molecule 2), how do the results read?
z-score vs non-targeting control: 2.12; activity call: active

With MRPL27 (mitochondrial ribosomal protein L27), what was measured?
z-score vs non-targeting control: 0.286; activity call: inactive

For CYP1B1 (cytochrome P450 family 1 subfamily B member 1), what was measured?
z-score vs non-targeting control: -0.83; activity call: inactive

For TAFAZZIN (tafazzin, phospholipid-lysophospholipid transacylase), how do the results read?
z-score vs non-targeting control: -1.99; activity call: active

What is on record for CYTH3 (cytohesin 3)?
z-score vs non-targeting control: -1.5; activity call: active

How did the screen score ARFGEF1 (ARF guanine nucleotide exchange factor 1)?
z-score vs non-targeting control: 1.77; activity call: active

What did the screen give for TRADD (TNFRSF1A associated via death domain)?
z-score vs non-targeting control: -0.606; activity call: inactive

With ARHGEF17 (Rho guanine nucleotide exchange factor 17), what does the deposit list?
z-score vs non-targeting control: 0.836; activity call: inactive

With CTNNA3 (catenin alpha 3), how do the results read?
z-score vs non-targeting control: 1.95; activity call: active

With TMEM106B (transmembrane protein 106B), what does the deposit list?
z-score vs non-targeting control: -1.59; activity call: active

Which result is listed for SFXN4 (sideroflexin 4)?
z-score vs non-targeting control: -1.35; activity call: active

What is on record for RPRD1A (regulation of nuclear pre-mRNA domain containing 1A)?
z-score vs non-targeting control: -1.58; activity call: active

How did the screen score NBPF10 (NBPF member 10)?
z-score vs non-targeting control: -0.907; activity call: inactive

Which result is listed for BAIAP3 (BAI1 associated protein 3)?
z-score vs non-targeting control: -0.27; activity call: inactive

With SEC62 (SEC62 preprotein translocation factor), what does the deposit list?
z-score vs non-targeting control: -1.14; activity call: active

For CMAS (cytidine monophosphate N-acetylneuraminic acid synthetase), how do the results read?
z-score vs non-targeting control: -1.78; activity call: active

Which result is listed for CLIP2 (CAP-Gly domain containing linker protein 2)?
z-score vs non-targeting control: 0.823; activity call: inactive

For SCNM1 (sodium channel modifier 1), what does the deposit list?
z-score vs non-targeting control: -0.889; activity call: inactive

Already shown: 2 of the entries above.
CLIP2 (CAP-Gly domain containing linker protein 2) | z-score vs non-targeting control = 0.823; activity call = inactive
SCNM1 (sodium channel modifier 1) | z-score vs non-targeting control = -0.889; activity call = inactive
